Compound potency records, mixed from different reports. Data source: NIAID ChemDB in PubChem.

Shared fields: growth or infection tests; species: Candida glabrata

ECn is the concentration giving n% inhibition of infection, replication or growth. A number after MIC or MFC names an inhibition level or a share of isolates. Conditions beyond the fields shown may differ between rows.

{"smiles": "O=C(O)c1cccc(-n2nnnc2SCc2cc([N+](=O)[O-])cc([N+](=O)[O-])c2)c1", "strain": "20/I", "conditions": "48 h", "read by": "broth dilution", "endpoint": "EC80", "value": ">500 µM"}
{"smiles": "C/C(=N\\NC(=O)c1ccccc1)c1ccc(-n2ccnc2)cc1", "strain": "ATCC 2001", "read by": "broth dilution", "endpoint": "MIC50", "value": ">821.4 µM"}
{"smiles": "O=[N+]([O-])c1cc(CSc2nnnn2-c2ccc(Cl)c(Cl)c2)cc([N+](=O)[O-])c1", "strain": "20/I", "conditions": "48 h", "read by": "broth dilution", "endpoint": "EC80", "value": ">125 µM"}
{"smiles": "NC(=S)N/N=C/c1ccc(-n2ccnc2)cc1", "strain": "2001", "read by": "broth dilution", "endpoint": "MIC50", "value": "510 µM"}
{"smiles": "C[C@H](Cc1ccc(O)c(O)c1)[C@@H](C)Cc1ccc(O)c(O)c1", "strain": "CCC 115-2000", "read by": "broth dilution", "endpoint": "MIC50", "value": "250 µg/mL"}
{"smiles": "c1ccc([Se][Se]c2ccccc2)cc1", "strain": "ATCC 2001", "read by": "broth dilution", "endpoint": "MFC", "value": ">64 µg/mL"}
{"smiles": "O=C(N/N=C/c1ccc(-n2ccnc2)cc1)c1ccccc1", "strain": "ATCC 2001", "read by": "broth dilution", "endpoint": "MIC50", "value": ">861.1 µM"}
{"smiles": "O=[N+]([O-])c1cc(CSc2nnnn2Cc2ccccc2)cc([N+](=O)[O-])c1", "strain": "20/I", "conditions": "48 h", "read by": "broth dilution", "endpoint": "EC80", "value": ">500 µM"}
{"smiles": "O=C(N/N=C\\n1ccnc1)c1ccc([N+](=O)[O-])cc1", "strain": "ATCC 2001", "read by": "broth dilution", "endpoint": "MIC50", "value": "<0.9 µM"}
{"smiles": "CN(C/C=C/C#CC(C)(C)C)Cc1cccc2ccccc12", "conditions": "clinical isolate", "read by": "broth dilution", "endpoint": "MIC80", "value": "3.44 µM"}
{"smiles": "O=[N+]([O-])c1cc(CSc2cccc[n+]2[O-])cc([N+](=O)[O-])c1", "strain": "20/I", "conditions": "48 h", "read by": "broth dilution", "endpoint": "EC80", "value": ">500 µM"}
{"smiles": "C[C@@H](c1ncncc1F)[C@](O)(Cn1cncn1)c1ccc(F)cc1F", "strain": "77 isolates", "endpoint": "MIC90", "value": "1 µg/mL"}
{"smiles": "NC(=S)N/N=C/c1cnc[nH]1", "strain": "ATCC 2001", "read by": "broth dilution", "endpoint": "MIC50", "value": ">1480 µM"}
{"smiles": "Nc1nc(=O)n([C@H]2CS[C@@H](CO)O2)cc1F", "strain": "77 isolates", "endpoint": "MIC90", "value": "0.25 µg/mL"}
{"smiles": "C[C@@H]1[C@H](O)[C@@H](C)/C=C/C=C/CC/C=C/C=C/C=C/C=C/C(O[C@H]2O[C@H](C)[C@@H](O)[C@H](N)[C@@H]2O)CC2O[C@](O)(CC(O)C(O)CCC(O)CC(O)CC(O)CC(=O)O[C@H]1C)CC(O)C2C(=O)O", "strain": "MTCC 3019", "endpoint": "MIC", "value": "150 µg/mL"}